Test results: PubChem BioAssay AID504582 (Broad Institute, 2011)
Only a part is listed here, and it is no random draw. The source made the active and inactive calls. Rule as the data show it: active = growth rescue above about 28% (passing the limit was not always enough); inconclusive = no clear call, values can overlap the other calls.

test: rescue of yeast from PfHsp40 toxicity, primary screen, S. cerevisiae, ATP luminescence (AID 504582);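 also: yeast W303a lacking pdr1 and pdr3 grown in galactose medium; growth measured after three days at 30 °C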; conditions: S. cerevisiae expressing PfHsp40, growth rescue, at 12.5 µM, active compounds read high

Row | Structure (SMILES) | growth rescue
1 | CN(C)C(=O)c1cc([N+](=O)[O-])cc2c1-c1c(cc([N+](=O)[O-])cc1[N+](=O)[O-])C2=O | inactive: 0.2%
2 | O=[N+]([O-])c1ccc2c(c1)nnn2O | inactive: 13.8%
3 | CN(C(=O)Cc1ccc(Cl)c(Cl)c1)[C@H]1CC[C@@]2(CCCO2)C[C@@H]1N1CCCC1 | inactive: -0.185%
4 | NC(=O)Nc1ccc([As](=O)(O)O)cc1 | inactive: 1.84%
5 | O=[As](O)(c1cccc(O)c1)c1cccc(O)c1 | inactive: 1.85%
6 | Cc1cccc(OCC(=O)OC2CN3CCC2CC3)c1 (stereo not drawn) | inactive: -0.192%
7 | O=C(OC1CN2CCC1CC2)c1ccc(Cl)cc1 (stereo not drawn) | inactive: -0.842%
8 | O=[As](O)(O)c1cccnc1 | inactive: -1.89%
9 | CS(=O)(=O)c1ccc(Cl)c(NC(=O)COC(=O)C(O)(c2ccccc2)c2ccccc2)c1 | inactive: -0.511%
10 | COc1cc(C2NCCC3(OCCO3)C2(C)C)cc(OC)c1OC (stereo not drawn) | inactive: -1.02%
11 | CCOP(=O)(Nc1cccc2ccccc12)OCC | inactive: -1.34%
12 | Nc1cccc2c([As](=O)(O)O)cccc12 | inactive: 1.39%
13 | Cc1ccc(NCCc2c([N+](=O)[O-])cc([N+](=O)[O-])cc2[N+](=O)[O-])cc1 | inactive: 2.39%
14 | CCCOP(=S)(Nc1nc(N)cc(=O)[nH]1)OCCC | inactive: -1.54%
15 | O=P1(N(CCCl)CCCl)Nc2ccccc2N1 | inactive: -0.45%
16 | O=P1(N(CCCl)CCCl)OCCCN1CCCl (stereo not drawn) | inactive: -0.459%
17 | COc1ccc2nc(NP(=O)(c3ccccc3)c3ccccc3)sc2c1 | inactive: 0.77%
18 | COc1cc(I)ccc1[As](=O)(O)O | inactive: 0.407%
19 | Cc1c2c(nc3ccccc13)SC(C(Cl)Cl)C2 (stereo not drawn) | inactive: 4.96%
20 | O=C(OC1CN2CCC1CC2)C12CC3CC(CC(C3)C1)C2 (stereo not drawn) | inactive: -0.605%
21 | Cc1cc(=O)[nH]c(N[N+](=O)[O-])n1 | inactive: 0.105%
22 | CC(O)C1C=CC=CC(=O)OC2CC3OC4C5OC5(C)CCC4(COC(=O)C4OC4(C)C(O)CO1)C2(C)C31CO1 (stereo not drawn) | inactive: -0.308%
23 | O=[N+]([O-])c1cc(Oc2ccc([N+](=O)[O-])cc2C(F)(F)F)cc([N+](=O)[O-])c1 | inactive: 5.2%
24 | C=C(C=O)CC1CC(O)[C@]2(C)OC3C[C@@H]4OC5C[C@]6(C)O[C@]7(C)CCC8OC9C[C@]%10(C)OC(/C(C)=C\CO)C(O)CC%10OC9CC(C)C8OC7CC6O[C@]5(C)C/C=C\C4OC3CC2O1 (stereo partly drawn) | inactive: -1.2%
25 | COc1ccc(N/C(=N/P(=O)(N2CCOCC2)N2CCOCC2)N2CCOCC2)cc1 | inactive: -0.001%
26 | Cc1ccc(OP(=O)(Nc2ccc([N+](=O)[O-])cn2)Oc2ccc(C)cc2)cc1 | inactive: 0.397%
27 | Cc1ccc2nc3c(c(C)c2c1)CC(C(Cl)Cl)S3 (stereo not drawn) | inactive: 1.16%

Row | Structure (SMILES) | growth rescue
28 | O=[As](O)(c1ccc(O)cc1)c1ccccc1O | inactive: -1.15%
29 | C[As](=O)(O)c1cccc(C(=O)O)c1 | inactive: -0.296%
30 | O=[N+]([O-])c1ccc(-c2cc([N+](=O)[O-])c(O)c([N+](=O)[O-])c2)cc1 | inactive: -1.18%
31 | O=C(OC1CN2CCC1CC2)c1cccc2[nH]cnc12 (stereo not drawn) | inactive: 1.27%
32 | CCN(CC)C(=S)SC(NC=O)C(Cl)(Cl)Cl (stereo not drawn) | inactive: 0.453%
33 | CC(C)NC(=O)NP(=O)(Oc1ccccc1)Oc1ccccc1 | inactive: -0.827%
34 | O=[N+]([O-])c1cc([N+](=O)[O-])c(-c2ccn[nH]2)s1 | inactive: 3.5%
35 | ClCCSc1nnc(-c2cccnc2)o1 | inactive: 0.77%
36 | CC(C)c1ccc(OP(=O)(Nc2ccccn2)Oc2ccccc2F)cc1 (stereo not drawn) | inactive: 0.431%
37 | COC(=O)C1(C)COP(=O)(N2CCCCCC2)OC1 (stereo not drawn) | inactive: -0.927%
38 | CC1CCOC(=O)C=CC=CC(=O)OC2CC3OC4C5OC5(C)C(O)CC4(COC(=O)C1O)C2(C)C31CO1 (stereo not drawn) | inactive: -1.53%
39 | Cc1cc(SC(NC(=O)c2ccccc2)C(Cl)(Cl)Cl)nc(C(C)C)n1 (stereo not drawn) | inactive: -0.767%
40 | CCOC(=O)Nc1ccc([As](=O)(O)O)c(O)c1 | inactive: 1.42%
41 | CC1CCNP(=O)(N(CCCl)CCCl)O1 (stereo not drawn) | inactive: 0.524%
42 | Cc1cc(SC(NC=O)C(Cl)(Cl)Cl)ncn1 (stereo not drawn) | inactive: -0.153%
43 | O=P(Nc1ccccn1)(c1cccc2ccccc12)c1cccc2ccccc12 | inactive: -1.1%
44 | O=[N+]([O-])c1ccc(Nc2ccc(Oc3ccc([N+](=O)[O-])cc3[N+](=O)[O-])cc2)c([N+](=O)[O-])c1 | inactive: 0.246%
45 | CCOC(=O)Nc1cccc([As](=O)(O)O)c1 | inactive: 3.29%
46 | C=C(CC1CC(O)[C@]2(C)OC3CC4OC5C[C@]6(C)O[C@]7(C)CCC8OC9C[C@]%10(C)OC%11C(C)=CC(=O)OC%11CC%10OC9C[C@@H](C)C8OC7CC6O[C@]5(C)C/C=C\C4OC3CC2O1)C(=O)O (stereo partly drawn) | inactive: -0.548%
47 | O=C(COc1ccccc1)OC1CN2CCC1CC2 (stereo not drawn) | inactive: 0.013%
48 | O=C(Nc1ccncc1[N+](=O)[O-])c1ccc([N+](=O)[O-])cc1[N+](=O)[O-] | inactive: -1.07%
49 | COP1(=S)c2c(C)nn(CCC#N)c2N=C(c2ccc(F)cc2)N1C (stereo not drawn) | inactive: -0.628%
50 | C=C(COC(C)=O)CC1CC(O)[C@]2(C)OC3CC4OC5C[C@]6(C)O[C@]7(C)CCC8OC9C[C@]%10(C)OC%11C(C)=CC(=O)OC%11CC%10OC9C[C@@H](C)C8OC7CC6O[C@]5(C)C/C=C\C4OC3CC2O1 (stereo partly drawn) | inactive: -1.68%
51 | CCC(C)N(CC(C)C)C(=S)SC(NC(C)=O)C(Cl)(Cl)Cl (stereo not drawn) | inactive: -0.236%
52 | O=C(OC1CN2CCC1CC2)c1cccc([N+](=O)[O-])c1 (stereo not drawn) | inactive: -2.18%
53 | CCOC(=O)c1ccc(NC(=O)C(C)(CCl)SC)cc1 (stereo not drawn) | inactive: 0.425%
